The text below walks through data of US10202379B2, “Substituted polycyclic carbamoyl pyridone derivative prodrug” (priority 2010, dated 2019).

Structures are written as SMILES.

Test [1] concerns influenza virus. The settings on record: read-out: CPE EC50; parent compounds (Reference examples); MDBK or MDCK cells, 3 days, WST-8.
For test [2], the target named is Cap-dependant Endonuclease (CEN) (RNP fraction, PB1-PB2-PA complex) (Influenza A virus (strain A/Wilson-Smith/1933 H1N1) (Influenza A virus (strain A/WS/1933 H1N1)), UniProt P15659). The settings on record: read-out: CEN IC50.
The test system of test [3] is influenza virus (A/WS/33, A/Victoria/3/75 or B/Maryland/1/59). In words: Influenza virus-infected mouse lethality inhibitory test. The settings on record: oral, 14 days after virus infection.

Regarding `C[C@@H](N1CN([C@H]2c3ccccc3CSc3c(CO)cccc32)n2ccc(=O)c(O)c2C1=O)C(F)(F)F`, the EC50 in test [1] was found to be 0.057 µM.
As for `C[C@@H](N1CN([C@@H]2c3ccccc3SCc3c2cccc3C(F)(F)F)n2ccc(=O)c(O)c2C1=O)C(F)(F)F`, the IC50 in test [2] amounted to 0.029 µM. Moreover, in test [1], the EC50 was found to be 0.012 µM.
`C[C@@H](N1CN([C@H]2c3ccccc3CSc3ccccc32)n2ccc(=O)c(O)c2C1=O)C(F)(F)F`: the “ED50 of single dose (dose for 50% lethality inhibition)” value in test [3] amounted to 12.3 mg/kg/day.
